Compound potency records, mixed from different reports. Data source: NIAID ChemDB in PubChem.

All rows: whole-cell or culture tests; organism: Mycobacterium kansasii; read-out: MIC

Conditions beyond the fields shown may differ between rows. An empty or dashed field is not shown.

structure	conditions	method	strain or isolate	value
Cc1ccc2c(=S)n(-c3ccc(C(C)C)cc3)c(=S)oc2c1	21 d	broth dilution	6509/96	2 µM
N/C(=N\N=C\c1cc(Cl)cc(Cl)c1O)SCc1cccc(Cl)c1	14 d	broth dilution	ATCC 12478	32 µM
O=c1oc2ccc(Cl)cc2c(=S)n1-c1ccc(C(F)(F)F)cc1	21 d		6509/96	16 µM
N/C(=N\N=C\c1cc(Br)ccc1O)SCc1ccc(F)cc1	21 d	broth dilution	6509/96	32 µM
O=C(N[C@@H](Cc1ccccc1)c1cnc(-c2ccccc2)[nH]1)OCc1ccccc1	14 d		My 235/80	>500 µM
O=C(Nc1ccc(F)cc1)c1cc(Cl)ccc1O	14 d	broth dilution	235/80	4 µM
O=C(Nc1cccc(Cl)c1)c1cc(Cl)ccc1OS(=O)(=O)c1ccccc1	21 d		6509/96	16 µM
O=C(Oc1cc(Cl)ccc1C(=O)Nc1cccc(Cl)c1)c1cnccn1	21 d		235/80	4 µM
O=C(Nc1cccc(F)c1)c1cc(Cl)ccc1O	14 d	broth dilution	235/80	8 µM
Fc1ccc2oc(=S)n(-c3ccccc3)c(=S)c2c1	21 d		6509/96	2 µM
CC[C@@H](C)[C@H](NC(=O)OCc1ccccc1)c1cnc(-c2ccc([N+](=O)[O-])cc2)[nH]1	21 d		My 235/80	62.5 µM
N/C(=N\N=C\c1ccccc1)SCc1ccc(C(F)(F)F)cc1	21 d	broth dilution	6509/96	62.5 µM
O=C(Oc1ccc(Cl)cc1C(=O)Nc1ccc(Br)cc1)c1ccccc1	21 d	broth dilution	6509/96	4 µM
O=C(Oc1ccc(Cl)cc1C(=O)Nc1cccc(Cl)c1)c1cnccn1	7 d		6509/96	2 µM
Fc1ccc(-n2c(=S)oc3ccc(Br)cc3c2=S)cc1	14 d		6509/96	8 µM
CC(C)[C@H](NC(=O)OCc1ccccc1)c1cnc(-c2ccc([N+](=O)[O-])cc2)[nH]1	7 d		My 235/80	32 µM
Fc1ccc2oc(=S)n(-c3ccc(Cl)c(Cl)c3)c(=S)c2c1	14 d		My 235/80	4 µM
O=C(Oc1cc(Cl)ccc1C(=O)Nc1ccc(C(F)(F)F)cc1)c1ccccc1	14 d	broth dilution	235/80	2 µM
CC(C)[C@H](NC(=O)OCc1ccccc1)c1cnc(-c2ccccc2)[nH]1	14 d		My 6509/96	62.5 µM
CCC(C)c1ccc(-n2c(=S)oc3cc(Cl)ccc3c2=S)cc1	14 d	broth dilution	6509/96	2 µM
N/C(=N\N=C\c1cc(Cl)ccc1O)SCc1ccc(Cl)cc1	14 d	broth dilution	ATCC 12478	32 µM
C[C@H](NC(=O)OCc1ccccc1)c1cnc(-c2ccccc2)[nH]1	7 d		My 6509/96	125 µM
Fc1ccc(-n2c(=S)oc3ccc(F)cc3c2=S)cc1	21 d		My 235/80	16 µM
O=C(Nc1ccc(F)cc1)c1cc(Cl)ccc1OS(=O)(=O)c1ccccc1	7 d		235/80	8 µM
O=C(Oc1cc(Cl)ccc1C(=O)Nc1cccc(Br)c1)c1ccccc1	21 d	broth dilution	6509/96	4 µM
O=C(Oc1ccc(Cl)cc1C(=O)Nc1ccc(Cl)cc1)c1cnccn1	7 d		235/80	2 µM
O=C(N[C@@H](Cc1ccccc1)c1cnc(-c2ccc([N+](=O)[O-])cc2)[nH]1)OCc1ccccc1	7 d		My 6509/96	8 µM
O=C(Nc1ccc(Br)cc1)c1ccc(Br)cc1OS(=O)(=O)c1ccccc1	7 d		235/80	8 µM
Fc1ccc2oc(=S)n(-c3ccc(Br)cc3)c(=S)c2c1	14 d		My 235/80	4 µM
O=C(Nc1cccc(Br)c1)c1ccc(Cl)cc1OS(=O)(=O)c1ccccc1	14 d		235/80	62.5 µM
Nc1ccc(C(=O)O)c(O)c1	21 d		6509/96	500 µM
O=C(Oc1cc(Cl)ccc1C(=O)Nc1ccc(F)cc1)c1ccccc1	14 d	broth dilution	6509/96	8 µM
COc1ccc2oc(=O)n(-c3ccc(Br)cc3)c(=S)c2c1	21 d		6509/96	32 µM
O=C(Nc1ccc(Cl)c(Cl)c1)c1ccc(Cl)cc1OS(=O)(=O)c1ccccc1	7 d		235/80	4 µM

The first 4 rows once more:

| structure | conditions | method | strain or isolate | value |
|---|---|---|---|---|
| Cc1ccc2c(=S)n(-c3ccc(C(C)C)cc3)c(=S)oc2c1 | 21 d | broth dilution | 6509/96 | 2 µM |
| N/C(=N\N=C\c1cc(Cl)cc(Cl)c1O)SCc1cccc(Cl)c1 | 14 d | broth dilution | ATCC 12478 | 32 µM |
| O=c1oc2ccc(Cl)cc2c(=S)n1-c1ccc(C(F)(F)F)cc1 | 21 d |  | 6509/96 | 16 µM |
| N/C(=N\N=C\c1cc(Br)ccc1O)SCc1ccc(F)cc1 | 21 d | broth dilution | 6509/96 | 32 µM |